Data as given in PubChem BioAssay AID624099 (ICCB-Longwood, 2012).

Aim: 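Host factors E2 relies on to silence an HPV18 LCR reporter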 (primary screen)
System: human C33A cervical carcinoma cells (HPV-negative) stably expressing BPV1 E2 and an HPV18 LCR luciferase reporter
Reagent: siRNA pool against human genes, 40 nM
Time to read-out: 72 h
Measurement: 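Per-well luciferase luminescence, z-scored on each plate against the plate mean and SD with control wells left out, then averaged across three replicate plates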
Reading the numbers: mean z-score and z-score: higher = stronger reporter signal, weaker E2 silencing
Active means: 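Hit if mean z-score reaches 2 and two or more of three replicate z-scores also reach 2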
The deposit covers about 21,000 reagents; below is a random part of them. Of all reagents, 497 (2.4%) were called active. 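Higher z means weaker E2 silencing; only reporter increases were scored, and knock-downs that hurt cell survival may mask genuine repressor factors.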 A number with no mark means an inactive call. The numbers tell different reagents against one gene apart. Reagent sequences are not shown.

With knock-down of FSCN1, the screen gave mean z-score 0.19; z-score, replicate A = 0.47; z-score, replicate B = -0.04; z-score, replicate C = 0.14.
Against EXOC2, the entry reads mean z-score -1.44; z-score, replicate A = -1.52; z-score, replicate B = -1.14; z-score, replicate C = -1.68.
For AMT the deposit lists mean z-score -1.23; z-score, replicate A = -0.95; z-score, replicate B = -1.51; z-score, replicate C = -1.22.
Against ZC3HAV1 the deposit lists mean z-score -0.03; z-score, replicate A = -0.2; z-score, replicate B = 0.13.
TRMT1L scored mean z-score 2.51 (active); z-score, replicate A = 1.93; z-score, replicate B = 2.61; z-score, replicate C = 2.98.
PTPRU scored mean z-score -0.16; z-score, replicate A = 0.02; z-score, replicate B = -0.27; z-score, replicate C = -0.22.
Silencing of CRYGA came out at: mean z-score -0.34; z-score, replicate A = -0.03; z-score, replicate B = -0.42; z-score, replicate C = -0.57.
With knock-down of RRAD, the screen gave mean z-score -1.6; z-score, replicate A = -1.53; z-score, replicate B = -1.56; z-score, replicate C = -1.71.
LOC255519 (retired record) gave mean z-score -0.12; z-score, replicate A = -0.06; z-score, replicate B = -0.05; z-score, replicate C = -0.25.
After knock-down of HMGN3 the results were mean z-score 0; z-score, replicate A = -0.23; z-score, replicate B = 0.08; z-score, replicate C = 0.14.
After knock-down of DNHD1 #1, the screen gave mean z-score 0.99; z-score, replicate A = 0.97; z-score, replicate B = 1.17; z-score, replicate C = 0.84.
Depletion of DNHD1 #2 resulted in: mean z-score -0.02; z-score, replicate A = -0.46; z-score, replicate B = 0.14; z-score, replicate C = 0.24.
After knock-down of DNHD1 #3, the screen gave mean z-score 0.29; z-score, replicate A = 0.18; z-score, replicate B = 0.39; z-score, replicate C = 0.32.
With knock-down of DNHD1 #4 the results were mean z-score 0.86; z-score, replicate A = 0.56; z-score, replicate B = 1.03; z-score, replicate C = 0.99.
After knock-down of MAP4, the screen gave mean z-score -0.79; z-score, replicate A = -0.84; z-score, replicate B = -0.83; z-score, replicate C = -0.7.
Knock-down of PPY2P came out at: mean z-score -1.42; z-score, replicate A = -1.6; z-score, replicate B = -1.14; z-score, replicate C = -1.52.
Knock-down of LINC01600 gave: mean z-score 0.12; z-score, replicate A = -0.18; z-score, replicate B = 0.37; z-score, replicate C = 0.17.
After knock-down of SGCB, the screen gave mean z-score 0.27; z-score, replicate A = 0.27; z-score, replicate B = 0.28; z-score, replicate C = 0.25.
ZNF580 scored mean z-score 0.7; z-score, replicate A = 0.81; z-score, replicate B = 0.26; z-score, replicate C = 1.02.
After knock-down of PHKG1 the results were mean z-score 0.66; z-score, replicate A = 0.58; z-score, replicate B = 0.51; z-score, replicate C = 0.89.
GPR132 showed mean z-score -0.71; z-score, replicate A = -0.59; z-score, replicate B = -0.78; z-score, replicate C = -0.75.

Records listed so far called active (1):
TRMT1L — mean z-score = 2.51 (active); z-score, replicate A = 1.93; z-score, replicate B = 2.61; z-score, replicate C = 2.98
